In patent US6346529B1, “Antiviral therapy using thiazine dyes” (Oklahoma Medical Research Foundation, priority 1988, dated 2002):
Read-outs that look alike come from different tables or passages of the source.

Columns and labels:
[1] = PBM cell proliferation (cytotoxicity) assay; format: cell-based; conditions: human, uninfected PHA-stimulated human PBM cells, read-out: Cytotoxicity: IC50 PBMC
Method: (§1) PBM and CEM Cells Proliferation Assay: The drugs were evaluated for their potential toxic effects on uninfected PHA-stimulated human PBM cells and also in CEM cells. The cells were cultured with and without drug for 6 days at which time aliquots were counted for cell viability as described above.

[2] = CEM cell proliferation (cytotoxicity) assay; format: cell-based; conditions: human, CEM cells
Method: as §1

[3] = cited from earlier work
Toxicity in Vero cells = format: cell-based; conditions: African green monkey, day three, read-out: Cytotoxicity: IC50 Vero
Method: Toxicity in Vero (African Green Monkey) Cells: […] The cells dislodged from the flask were generally in clumps and were dispersed by repeated forceful pipetting of the suspension against the surface of the flask. To 1 ml of the well-dispersed cell suspension, 0.2 ml of trypan blue solution was added, and the number of cells were counted using a hemacytomer. Each day for the next 3 days, two of the remaining flasks were harvested in the manner just described for determination of cell number. Only data on day three are presented. This method has previously been described by Schinazi, et al., “Effect of Combination of Acyclovir, and Vidarabine or its 5′-monophosphate on Herpes Simplex Viruses in Cell Culture and in Mice,” Antimicrob. Agents Chemother. 22, 499-507 (1982)).

In the case of `CN(C)c1ccc2nc3ccc(N(C)C)cc3[s+]c2c1.[Cl-]` [MB, 3,7-Bis(dimethylamino)phenothiazin-5-ium chloride], the IC50 at 6 days ([1]; dark) is reported as > 1000 nM, the IC50 at 6 days ([1]; light) is reported as 6100 nM and the IC50 at 6 days ([2]; dark) is reported as 2220 nM. For the same molecule, the IC50 at 6 days ([2]; light) was 120 nM, the side effects ([3]; adult humans, one week to 19 months, 100 mg b.i.d. or t.i.d. orally or 100 mg i.v.) was “minimal side effects” and the side effects ([3]; recommended doses by mouth or i.v.) was “blue urine, occasional nausea, anemia and fever”. For the same molecule, the IC50 at 3 days (Toxicity in Vero cells; dark) was 660 nM and the IC50 at 3 days (Toxicity in Vero cells; light) was 140 nM.
